Experimental data: PubChem BioAssay AID449762 (Southern Research Specialized Biocontainment Screening …, 2010)
Inconclusive results are not listed.

Tested on: M. tuberculosis H37Rv growth inhibition, 7H9 media
Test: M. tuberculosis growth inhibition, HTS (AID 449762);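 further: bacterial growth assessed after seven days of incubation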

O=C(OC1CN2CCC1CC2)C1c2ccccc2Oc2ccccc21 (stereo unspecified)
IC50: 8.17 µM
